# Values quoted from earlier work, collected in publication PMC8184532 (European Journal of Clinical Pharmacology, 2021).
# Conditions: coadministered with ritonavir-boosted darunavir and etravirine vs maraviroc alone
substance,measurement,value
maraviroc,increase in maraviroc exposure,3 fold
